Measurements reported in paper doi:10.1101/2023.11.21.567704v1 (biorxiv, 2023).

By UniProt entry, the sequences of proteins in these tests, tags left out.
UniProt P9WNC5, whole entry: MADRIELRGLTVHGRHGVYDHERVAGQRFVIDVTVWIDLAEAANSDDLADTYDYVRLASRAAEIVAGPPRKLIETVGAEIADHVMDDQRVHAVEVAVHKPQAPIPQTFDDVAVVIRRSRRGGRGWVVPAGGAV

target: MtbFolB (Mycobacterium tuberculosis, UniProt P9WNC5); experiment: end-point fluorescence assay; assay type: biochemical; conditions: 5 µM DHNP, 14 nM enzyme, pH 8.0, 24 °C, 1% DMSO

Row | SMILES | IC50
1 | COc1ccc(C)cc1NC(=O)c1c(C)sc2c(=O)n(C3CCCCC3)cnc12 | > 100 µM
2 | COc1ccc(NC(=O)c2c(C)sc3c(=O)n(C4CCCCC4)cnc23)c(OC)c1 | > 100 µM
3 | CCc1ccc(NC(=O)c2cn(-c3cc(-c4nc(CC)no4)ccn3)cn2)cc1 | > 100 µM
4 | CCOC(=O)c1cc(S(=O)(=O)Nc2ccc(N(C)C)cc2)n[nH]1 | 2.6 µM
5 | Cc1nn(-c2nc3ccccc3s2)c2c1C(c1ccccc1OC(C)C)SCC(=O)N2 (stereo not drawn) | > 100 µM
6 | CN(C)c1ccc(NS(=O)(=O)c2ccc(Br)s2)cc1 | 15.4 µM
